Measurements reported in the supplement of paper PMC9931576.
Human monoclonal antibodies against the spike receptor-binding domain (heavy:light variable regions). IC50 against pseudoviruses bearing the spike of naturally observed variants; lower = stronger; >10 µg/ml means not reached at the top dose. No active / inactive call. The stated detection limit is 0.0005 µg/ml; values near or below 0.001 µg/ml lie at the floor of the assay.

B1: BD55-5205 (protein)
chain 1: QVQLQESGPGLVQPSETLSLTCTVSGTSITNYYWSWIRQPPGKGLEWIGYIYYSGKINYNPSLKSRVTMSMDTPKNRFSLRLTSVTAADTAIYYCARGSIVADGPNTIDLWGQGTLVVVSS
chain 2: QSALTQPASVSGSPGQSITISCTGTSSDVGAYDYVSWYQQHPGKAPKLLIFDVNKRPSGVSNRFSGSKSGNTASLTISGLQAEDEADYYCSSFESSITEVFGGGTKVTVL
B2: BD55-1034 (protein)
chain 1: QVQLVQSGAEVKKPGASVMVSCKASGYTFTNYYIHWVRLAPGQGLEWVGIINPDGDSTTYAQRFQGRVTLTADTSTSTVYMYLRRLRSEDTAVYYCARGTDFVPIDRRPFDCWGQGTLVTVSS
chain 2: DIVMTQSPDSLAVSLGERATINCKSSQSGLYSSNNKSYLAWYQQKPGQPPKLLIYWASTRESGVPDRFSGSGSGTDFTLTISSLQAEDVAVYYCHQYYNTPHTFGQGTKLEIK
B3: BD55-5223 (protein)
chain 1: EVQLLESGGGWVQPGGSLRLSCAASGFTFSSYAMSWVRQAPGKGLEWVSAISNTGGSTYYADSVKGRFTVSRDDSKNTLYLQMNSLRAEDTAVYYCAKNWDSIGYTSGWQHLDWFDPWGQGTLVTVSS
chain 2: DIQMTQSPSSLSASVGDRVTITCRASQSINTYLNWYQQKPGKAPKLLIYVASSLQSGVPSRFSGSGSGTDFTLTISSLQPEDFATYYCQQSYSSPSITFGQGTRLEIK
B4: BD55-5234 (protein)
chain 1: QVQLVQSGAEVRKPGASVKVSCKASGYTFNSHDINWVRQAVGQGLEWMGWMNPLSGDTGFAQSFQGRVILTRDSSISTAYMELRSLRSDDTAVYYCARGYPYSDMLTGVSHYYYGLDVWGQGTTVTVSS
chain 2: DIQMTQSPSSLSASVGDRVTITCRASQGISNSLAWFQQKPGKAPKSLIYGASSLQSGVPSKFSGSGSGTDFTLTISSLQPEDFATYYCQQYHSYPLTFGGGTKVEMK
B5: BD55-5236 (protein)
chain 1: QVQLVQSGAEVKKPGSSVKVSCKASGGTFTSQAISWVRQAPGQGLEWMGRIITVLGTTTYAQKFQGRLRITADRSTNTAYMDLTGLTSDDTAVYFCARDLDGYSGYDFGSSERRDSFYFDYWGQGTLVNVPS
chain 2: SSELTQDPPVSVALGQTVRITCQGDSLRTYYASWFQQKPGQAPLLVVYGKNYRPSGIPARFSGSFSGNTASLTITGAQAEDEADYYCNSRDSNNDHHVIFGGGTKLTVL
B6: BD55-5245 (protein)
chain 1: QVQLVQSGAEVKKPGSSVKVSCKASGGSLSSDGINWVRQAPGQGLEWLGRIIPIPGIADNAQKFQGRVTITADKSTSTAYMELSSLRSEDTAVYYCARAPPRGYSGYDLLGNDAFDIWGQGTMVTVSS
chain 2: QSVLTQPPSVSGAPGQRVTISCTGSSSNIGAGYDVHWYQQLPGTAPKLLLYGNTNRPSGVPDRFTGSKSGTSASLAITGLQAEDEADYYCQSYDTSLSGSYVFGTGTKVAVL
B7: BD55-5256 (protein)
chain 1: QVQLVQSGTEVKKPGSSVKVSCKASGGPFSGYVINWVRQAPGQGLEWMGGIIPVFETVKYAQKFQGRVTITAGESASTAYMELNSLRSEDTAVYYCAKSKYHSGYDVLTGRADFSLPFDYWGQGTLVTVSS
chain 2: DIQMTQSPSSLSASVGDRVIITCQASQDITNSLSWYQQKPGKAPKLLIYGAFNLETGVPSRFSGSGSGTDFTFAISSLQPEDIATYFCQQYADLPYTFGQGTKLDIK
B8: BD55-5259 (protein)
chain 1: QITLKESGPTLVKPTQTLTLTCTFSGFSLTMPEVGVAWVRQPPGKALEWLALIYGDDNKRYSPSLESRLTITKDSSKNQVVLTMTNLDSVDTATYYCARRKFLWDSDPVAFDYWGLGTLVIVSS
chain 2: DIVMTQTPLSLPVTLGQPASISCRSSQSLVHIDGNIYLSWLQQRPGQPPRLLIYKISNRFSGVPDRFSGSGSGTDFTLKISRVEAEDVGVYYCMQATQFPHEMYTFGQGTKLEIR
B9: BD55-5268 (protein)
chain 1: QVQLQQRGAGLLRPSETLSLTCDVSGGSFSGYYWNWVRQPPGKGLEWIGDIDLAGDNYNPSLKSRVTMSIDASKNQFSLRLSSVTAADTAVYFCVRAPNLGWFGPKQGAFDLWGQGTVVIVSS
chain 2: not shown
B10: BD55-5286 (protein)
chain 1: QVQLVQSGSELKRPGASVRVSCETSGYTFTDYAINWVRQAPGQGLEWMGWINTYSGHPTYAQAFTGRFVFSVDMSGSTAYLQISSLKPADTAVYYCARDLQVPEGLDYWGQGTLVTVSS
chain 2: DIVMTQSPATLSLSPGETATLSCRASYSFTSRLAWYQQKFGQAPRLLIHDASTRAPGVPARFSGSGSGTEFTLAISSLQSEDSAVYYCQQYHSWPLTFGQGTKVEI
B11: BD55-5301 (protein)
chain 1: EVQLVESGGGVVQPGGSLRLSCAASGFTFYDYAMNWVRQAPGKGLEWVSLISWNGGITYYADSVKGRFTISRDNSKNSLYLQMNSLKPEDTALYYCAKDIFRDHDLLTHDNFDYWGQGTLVTVAS
chain 2: QSVLTQPPSASGTPGQRVTISCSGSSSNIGINIVSWYQQLPGAAPKLLIYSNNQRPSGVPDRFSGSKSGTSASLAISGLQSEDEADYHCVAWDDTLNGPVFGGGTKLTVL
B12: BD55-5304 (protein)
chain 1: EVQLVESGGGLVQPGRSLRLSCAASGFNFDDYAMHWVRQRPGKGLEWVSSISWNRGTIGYADSVKGRFTISRDNAKDSLFLQMNSLRPEDTAVYYCAKDIDQQWELFGGHFDSWGPGTLVTVSS
chain 2: QSVLTQPPSVSGAPGQRVTISCTGSSSNIGAGYGVHWYQQLPGTAPKLLIYSSTNRPSGVPDRFSGSKSGTSASLAITGLQAEDEADYYCQSYDSSLSGSEVFGGGTKLTVL
B13: BD55-5309 (protein)
chain 1: QVRLIQSGAEVKKPGSSVTISCKASGGSFSSYSISWVRQAPGQGLEWVGGFVPLFHKADYAQTFQGRVTITADESTTTTSMELTSLRVEDTAVYYCARGEYFGYDYLGFYYGLDVWGQGTTIAVSS
chain 2: QIVVTQEPSLTVSPGETVTLTCGSSAGAVTSGHYPYWFQKKPGQAPRTLIYNTNKKHSWTPARFSGSLIAGKAALTLSGALPDDEADYYCLVATVFGGGTKLTVL

target: SARS-CoV-2 Omicron BA.1 spike pseudovirus; test: pseudovirus neutralization IC50; higher = weaker neutralization
Method: (§1)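 Single-round VSV luciferase pseudovirus mixed with antibody dilutions for 1 h and put on Huh-7 cells for about a day; IC50 from the dose curve.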

Row | Binder | pseudovirus neutralization IC50 [µg/mL]
1 | B1 | > 10
2 | B2 | > 10
3 | B3 | > 10
4 | B4 | > 10
5 | B5 | > 10
6 | B6 | > 10
7 | B7 | 3.7
8 | B8 | 3.9
9 | B9 | > 10
10 | B10 | 0.0928
11 | B11 | > 10
12 | B12 | 0.155
13 | B13 | > 10

target: SARS-CoV-2 Omicron BA.2 spike pseudovirus; test: as above
Method: as §1

Row | Binder | pseudovirus neutralization IC50 [µg/mL]
14 | B1 | > 10
15 | B2 | > 10
16 | B3 | > 10
17 | B4 | > 10
18 | B5 | > 10
19 | B6 | > 10
20 | B7 | 2.28
21 | B8 | 4.3
22 | B9 | > 10
23 | B10 | 0.0573
24 | B11 | > 10
25 | B12 | > 10
26 | B13 | > 10

target: SARS-CoV-2 Omicron BA.2.75 spike pseudovirus; test: as above
Method: as §1

Row | Binder | pseudovirus neutralization IC50 [µg/mL]
27 | B1 | > 10
28 | B2 | > 10
29 | B3 | > 10
30 | B4 | > 10
31 | B5 | > 10
32 | B6 | > 10
33 | B7 | 3.49
34 | B8 | 3.85
35 | B9 | > 10
36 | B10 | 1.39
37 | B11 | > 10
38 | B12 | > 10
39 | B13 | > 10

target: SARS-CoV-2 Omicron BA.5 spike pseudovirus; test: as above
Method: as §1

Row | Binder | pseudovirus neutralization IC50 [µg/mL]
40 | B1 | > 10
41 | B2 | > 10
42 | B3 | > 10
43 | B4 | > 10
44 | B5 | > 10
45 | B6 | > 10
46 | B7 | 5.23
47 | B8 | 4.47
48 | B9 | > 10
49 | B10 | 0.108
50 | B11 | > 10
51 | B12 | > 10
52 | B13 | > 10

target: SARS-CoV-2 Omicron BQ.1.1 spike pseudovirus; test: as above
Method: as §1

Row | Binder | pseudovirus neutralization IC50 [µg/mL]
53 | B1 | > 10
54 | B2 | > 10
55 | B3 | > 10
56 | B4 | > 10
57 | B5 | > 10
58 | B6 | > 10
59 | B7 | 4.4
60 | B8 | 3.34
61 | B9 | > 10
62 | B10 | > 10
63 | B11 | > 10
64 | B12 | > 10
65 | B13 | > 10

target: SARS-CoV-2 Omicron XBB spike pseudovirus; test: as above
Method: as §1

Row | Binder | pseudovirus neutralization IC50 [µg/mL]
66 | B1 | > 10
67 | B2 | > 10
68 | B3 | > 10
69 | B4 | > 10
70 | B5 | > 10
71 | B6 | > 10
72 | B7 | 3.26
73 | B8 | 4.3
74 | B9 | > 10
75 | B10 | > 10
76 | B11 | > 10
77 | B12 | > 10
78 | B13 | > 10

target: SARS-CoV-2 early D614G spike pseudovirus; test: as above
Method: as §1

Row | Binder | pseudovirus neutralization IC50 [µg/mL]
79 | B1 | > 10
80 | B2 | > 10
81 | B3 | 0.14
82 | B4 | > 10
83 | B5 | 0.212
84 | B6 | 0.579
85 | B7 | 0.47
86 | B8 | 0.625
87 | B9 | 0.73
88 | B10 | 0.00115
89 | B11 | 0.0376
90 | B12 | 0.0181
91 | B13 | 0.384
